The values that follow come from patent US20230174472A1, “THERAPEUTIC USE OF PLEUROMUTILINS” (priority 2020, published 2023).

SMILES strings stand for the structures. Some results are limits rather than exact numbers.

Data set [1] relates to Zika virus (strain ZIKVPRVABC59). Nature of the data set: inhibition of virus-induced CPE, Zika virus in Huh7 cells. Type of data set: cell-based. Conditions: Example 13. As to the method:
The Zika virus strain PRVABC59 obtained from ATCC (catalog VR-1843) […] was grown in Rhesus monkey kidney cells for the production of stock virus pools.
Cell viability determination as well as EC50 and TC50 calculations were performed as described in Examples 6 and 8.

Data set [2] has as its system alpha coronavirus 229E (HCoV-229E). Nature of the data set: inhibition of virus-induced CPE, CoV229E in MRC-5 cells (XTT). Type of data set: cell-based. As to the method: The antiviral compound Remdesivir served as positive control.
Lefamulin (as acetate) was evaluated using different treatment conditions of 4 h, 1 h or 0 h incubation prior to virus addition and addition 1 h after infection For this particular set of experiments, coronavirus was diluted 1:200 in assay medium and added at 100 μL/well to achieve approximately 90% cell killing in the untreated virus control wells (MOI of 0.001).
On the technique in general: Tetrazolium dyes change colour on reduction, which living cells bring about.

Where [3] appears, read: Example 6, ratio of EC50 and TC50.

On to `CC(C)OC(=O)[C@H](C)N[P@](=O)(OC[C@H]1O[C@@H](n2ccc(=O)[nH]c2=O)[C@](C)(F)[C@@H]1O)Oc1ccccc1` [Sofosbuvir, reference compound], for which the “Therapeutic Index” value in data set [1] is listed as over 15.4.
As to `C=C[C@]1(C)C[C@@H](OC(=O)CS[C@@H]2CC[C@@H](N)C[C@H]2O)[C@]2(C)C(C)CC[C@]3(CCC(=O)[C@H]32)[C@@H](C)[C@@H]1O` (stereo partly drawn) [Lefamulin, 14-O-{[(1R, 2R, 4R)-4-amino-2-hydroxy-cyclohexylsulfanyl]-acetyl}-mutilin], the “Therapeutic Index” value is reported as 8.42 in data set [1]; 14.3 in data set [2] (setting [3]); over 16.2 in data set [2] (Example 7, 0 h pretreatment); over 3.31 in data set [2] (Example 7, 1 h post-infection); over 23.1 in data set [2] (Example 7, 1 h pretreatment); over 22.9 in data set [2] (Example 7, 4 h pretreatment).
As to `C=C[C@]1(C)C[C@@H](OC(=O)CSCCN(CC)CC)[C@]2(C)[C@H](C)CC[C@]3(CCC(=O)[C@H]32)[C@@H](C)[C@@H]1O` [Tiamulin, reference compound], the “Therapeutic Index” value in data set [2] (setting [3]) stood at 2.58.
